Test results as given in patent US20090221624A1, “4-AMINOQUINOLINE COMPOUNDS FOR TREATING VIRUS-RELATED CONDITIONS” (priority 2005, published 2009).

Assays:
[1] = system: SINV (SR19-F-luc cells); assay: SINV antiviral activity, SR19-F-luc cells, Firefly luciferase; assay type: cell-based, Sindbis virus; conditions: therapeutic index CC50/EC50, SINV
[2] = system: DNG (D2-hRuPac cells); assay: DNG antiviral activity, D2-hRuPac cells, Renilla luciferase; assay type: cell-based, Dengue fever virus; conditions: therapeutic index CC50/EC50, DNG
[3] = system: EBOV minigenome; assay type: cell-based, Ebola virus; conditions: ratio CC50 / EC50

| SMILES | SINV TI [1] | DNG TI [2] | EBOV TI [3] |
| --- | --- | --- | --- |
| c1ccc2cc(Nc3c4ccccc4nc4ccccc34)ccc2c1 [Compound 1] | 1.69 | 6.63 | 1.33 |
| CCc1ccccc1Nc1c2ccccc2nc2ccccc12 [Compound 2] | 1.71 | 1.55 | 0.85 |
| Cc1ccc2nc(C)cc(Nc3ccccc3)c2c1 [Compound 3] | 40.56 | 1.53 | 0.8 |
| CCOC(=O)c1ccc(Nc2cc(C)nc3c2ccc2ccccc23)cc1 [Compound 4] | 0.97 | 2.23 | 1.23 |
| c1cncc(CNc2c3ccccc3nc3ccccc23)c1 [Compound 5] | 4.07 | 7.84 | 1.87 |
| Cc1ccc(Nc2cc(C)nc3ccc(C)cc23)cc1 [Compound 6] | 15.3 |  |  |
| COc1ccc(Nc2cc(C)nc3c2ccc2ccccc23)cc1 [Compound 7] | 1 | 4.41 | 6.94 |
| COC(=O)c1ccc(Nc2c3c(nc4ccccc24)CCC3)cc1 [Compound 8] | 3.1 | 1.22 | 1.38 |
| Cc1ccc(Nc2cc(C)nc3c2ccc2ccccc23)cc1 [Compound 9] | 0.97 | 0.97 | 1.19 |
| c1coc(CNc2c3c(nc4ccccc24)CCC3)c1 [Compound 10] | 0.84 | 2.37 | 1.35 |
| Cc1cccc(Nc2c3c(nc4ccccc24)CCC3)c1 [Compound 11] | 10.27 |  | 1.11 |
| C=CCNc1c2c(nc3ccccc13)CCC2 [Compound 12] | 10.4 | 1.04 | 1.58 |
| CCOC(=O)c1ccc2ncc(C(=O)OCC)c(NCc3ccco3)c2c1 [Compound 13] | 0.79 | 3.37 | 5.87 |
| COC(=O)c1ccc(Nc2cc(C)nc3cc(Cl)ccc23)cc1 [Compound 14] | 3.05 | 0.99 | 0.82 |
| Cc1ccc2nc(C)cc(N3CCC(C)CC3)c2c1 [Compound 15] | 13.07 | 1.01 | 1.03 |
| Cc1ccc2nc3c(c(Nc4ccc(O)cc4)c2c1)CCC3 [Compound 16] | 22.46 | 3.62 | 1.14 |
| CC(=O)c1cccc(Nc2cc(C)nc3ccccc23)c1 [Compound 17] | 19.58 | 1 | 1 |
| Cc1ccc2nc(C)cc(NCc3ccccc3)c2c1 [Compound 18] | 3.68 | 1.79 |  |
| CCOC(=O)c1cnc2c(Cl)c(Cl)ccc2c1NCc1ccco1 [Compound 19] |  |  | 0.28 |
| COc1ccc(Nc2cc(C)nc3ccccc23)cc1 [Compound 20] | 17.52 | 1.79 | 1.5 |
| Cc1ccc2nc3c(c(Nc4ccc(N5CCOCC5)cc4)c2c1)CCC3 [Compound 21] | 3.7 | 2.22 | 0.94 |
| COc1cccc2c(Nc3ccc4c(c3)OCCO4)cc(C)nc12 [Compound 22] | 0.79 | 1.61 | 10.78 |

| SMILES | SINV TI [1] | DNG TI [2] | EBOV TI [3] |
| --- | --- | --- | --- |
| Cc1ccc2nc(C)cc(NCc3ccco3)c2c1 [Compound 23] | 0.77 | 2.25 | 0.77 |
| CCc1ccccc1Nc1cc(C)nc2c(OC)cccc12 [Compound 24] | 3.49 | 2.09 | 1.04 |
| COc1cccc2c(Nc3cccc([N+](=O)[O-])c3)cc(C)nc12 [Compound 25] | 10.77 | 5.9 | 0.31 |
| Cc1ccc2nc3c(c(Nc4cccc(C(F)(F)F)c4)c2c1)CCC3 [Compound 26] | 2.87 | 1.1 | 0.71 |
| Cc1ccc2nc3c(c(Nc4ccccc4)c2c1)CCC3 [Compound 27] | 26.97 | 1.32 | 0.8 |
| Cc1ccc(Nc2c3c(nc4ccc(C)cc24)CCC3)cc1 [Compound 28] | 16.04 |  |  |
| CCOC(=O)c1cnc2ccc(OC)cc2c1NCc1ccco1 [Compound 29] | 0.51 | 2.97 | 2.53 |
| CCOC(=O)c1cnc2ccccc2c1NCc1ccco1 [Compound 30] | 0.74 | 4.61 | 4.39 |
| CCOC(=O)c1cnc2ccc(OCC)cc2c1Nc1ccc(I)cc1 [Compound 32] | 1 | 1 | 1 |
| CCOC(=O)c1cnc2ccc(OCC)cc2c1Nc1ccccc1CC [Compound 34] | 0.83 | 0.83 | 0.83 |
| CCOC(=O)c1cnc2c(C)cc(C)cc2c1NCc1ccco1 [Compound 35] | 0.5 | 3.35 | 5.6 |
| CCOC(=O)c1cnc2ccc(OCC)cc2c1NCc1ccco1 [Compound 36] | 0.63 | 2.87 | 0.63 |
| CCOC(=O)c1cnc2c(ccc3ccccc32)c1NCc1ccco1 [Compound 37] | 0.55 | 1.63 | 0.55 |
| CCOC(=O)c1cnc2ccc(C)cc2c1Nc1ccc(N2CCOCC2)cc1 [Compound 38] | 1 | 1 | 1 |
| CCOC(=O)c1cnc2ccc(C)cc2c1NCc1ccco1 [Compound 39] | 0.36 | 3.8 | 3.73 |
| Cc1cc(Nc2cccc(C(F)(F)F)c2)c2cc(Cl)ccc2n1 [Compound 40] | 4.16 | 1.48 | 0.8 |
| CCOc1ccc2nc(C)cc(Nc3ccc(Br)cc3)c2c1 [Compound 41] | 9.72 | 3.64 | 0.38 |
| CCOc1ccc2nc(C)cc(Nc3ccc(OCc4ccccc4Cl)cc3)c2c1 [Compound 42] | 8.56 | 5.07 | 0.39 |
| COc1ccc2nc(C)cc(Nc3ccc(OCc4ccccc4Cl)cc3)c2c1 [Compound 43] | 6.38 | 15.79 | 0.35 |
| Cc1cc(C)c2nc(C)cc(Nc3ccc(OCc4ccccc4)cc3)c2c1 [Compound 44] | 7.67 | 8.08 | 0.37 |
| CCOc1ccc2nc(C)cc(Nc3ccc(C)c(Cl)c3)c2c1 [Compound 45] | 7.84 | 5.03 | 0.34 |
| CCOC(=O)c1cnc2c(C)cccc2c1NCc1ccco1 [Compound 46] | 0.99 | 4.81 | 6.2 |

| SMILES | SINV TI [1] | DNG TI [2] | EBOV TI [3] |
| --- | --- | --- | --- |
| Cc1cc(Nc2ccc(C)c(C)c2)c2cc(Cl)ccc2n1 [Compound 47] | 7.75 | 1.42 | 0.75 |
| CC(=O)c1cccc(Nc2cc(C)nc3c(C)cc(C)cc23)c1 [Compound 48] | 10.36 | 2.44 | 0.97 |
| Cc1cc(C)c2nc(C)cc(Nc3ccc(O)cc3)c2c1 [Compound 49] | 0.52 | 2.97 | 5.71 |
| CCOC(=O)c1ccc2nc(C)cc(Nc3ccc(C)cc3C)c2c1 [Compound 51] | 4.09 | 0.92 | 1.07 |
| CCOC(=O)c1cnc2c(Cl)cc(Cl)cc2c1NCc1ccco1 [Compound 52] | 1.78 | 2.79 | 3.34 |
| Cc1cc(C)c2nc(C)cc(Nc3ccc(Cl)c(Cl)c3)c2c1 [Compound 53] | 7.35 | 1.71 | 0.66 |
| Cc1cc(C)c2nc(C)cc(NCc3ccco3)c2c1 [Compound 54] | 1.31 | 2.29 | 0.67 |
| CCOC(=O)c1cnc2c(Cl)cccc2c1NCc1ccco1 [Compound 55] | 0.64 | 5.66 | 4.64 |
| CCOc1ccc2nc(C)cc(Nc3ccc(OC)c(OC)c3)c2c1 [Compound 56] | 11.95 | 3.28 | 0.59 |
| CCOc1ccc2nc(C)cc(Nc3ccc(N(C)C)cc3)c2c1 [Compound 57] | 7.81 | 4.94 | 0.41 |
| CCOc1ccc2nc(C)cc(Nc3cc(Cl)ccc3OC)c2c1 [Compound 58] | 4.44 | 2.7 | 3.78 |
| CCOc1ccc2nc(C)cc(Nc3ccc(Cl)cc3)c2c1 [Compound 59] |  |  | 6.56 |
| COC(=O)c1ccc(Nc2cc(C)nc3ccc(Cl)cc23)cc1 [Compound 60] | 6.25 | 4.93 | 1 |
| COC(=O)c1ccc(Nc2cc(C)nc3c(C)cccc23)cc1 [Compound 61] | 2.65 | 3.27 | 0.65 |
| CCOC(=O)c1cnc2c(OC)cccc2c1NCc1ccccc1 [Compound 62] |  |  | 0.58 |
| CCCOC(=O)c1ccc(Nc2cc(C)nc3ccc(C(=O)OCC)cc23)cc1 [Compound 63] | 0.93 | 1.57 | 7.77 |
| CCOC(=O)c1ccc2ncc(C(=O)OCC)c(NCCCOC(=O)C(Cl)(Cl)Cl)c2c1 [Compound 64] | 1.77 | 14.44 | 3.9 |
| CCOC(=O)c1cnc2c(OC)cccc2c1NCc1ccco1 [Compound 67] |  |  | 1.49 |
| CCOC(=O)c1cnc2c(OC)cccc2c1NCc1cccnc1 [Compound 68] |  |  | 0.74 |
| CCOC(=O)c1cnc2c(OC)cccc2c1NCCCO [Compound 70] |  |  | 0.66 |
| COc1ccccc1Nc1cc(C)nc2c(C)c(C)cc(N)c12 [Compound 77] |  |  | 0.7 |
